Pooled drug test results. Numbers come from NIAID ChemDB, via PubChem.

All rows: whole-cell or culture tests; agent: HIV-2; method: p24; read-out: EC50

Conditions beyond the fields shown may differ between rows. ECn is the concentration giving n% inhibition of infection, replication or growth.

{"structure": "COC(=O)[C@H](C)NP(=O)(OC[C@H]1C/C1=C/n1cnc2c(N)nc(N)nc21)Oc1ccccc1", "cells": "MT-2", "strain or isolate": "ROD", "result": "0.38 µM"}
{"structure": "COc1ccc2c(c1)N(C(=O)OC(C)C)[C@@H](CSC)C(=S)N2", "cells": "PBL", "strain or isolate": "ROD", "result": ">10 µM"}
{"structure": "CC(C)[C@H](NC(=O)c1ccc2ccccc2n1)C(=O)N[C@@H](Cc1ccccc1)[C@H](O)CN1CC[C@@H](OCc2ccncc2)C[C@H]1C(=O)NC(C)(C)C", "cells": "PBMC", "strain or isolate": "ROD", "result": "0.008 µM"}
{"structure": "CC(C)[C@H](NC(=O)OCc1ccccc1)C(=O)N[C@@H](Cc1ccccc1)[C@@H](O)[C@@H](NCc1ccc(Cl)cc1)C(=O)N[C@H](C(=O)NCc1nc2ccccc2[nH]1)C(C)C", "cells": "MT-4", "strain or isolate": "EHO", "result": "0.55 µM"}
{"structure": "Nc1nc(=O)n([C@H]2C[C@H](O)[C@@H](CO)O2)cc1COCC(F)(F)F", "cells": "CEM", "result": ">100 µg/mL"}
{"structure": "Cc1cn([C@H]2C[C@H](N=[N+]=[N-])[C@@H](CO)O2)c(=O)[nH]c1=O", "cells": "PBMC", "strain or isolate": "CDC310319", "result": "0.006 µM"}
{"structure": "COc1ccc(CN[C@@H](C(=O)N[C@H]2c3ccccc3C[C@H]2O)[C@H](O)[C@H](Cc2ccccc2)NC(=O)[C@@H](NC(=O)OCc2ccccc2)C(C)(C)C)cc1", "cells": "MT-4", "strain or isolate": "ROD", "result": "0.14 µM"}
{"structure": "COc1ccc(CN[C@@H](C(=O)N[C@H](C(=O)NCc2nc3ccccc3[nH]2)C(C)C)[C@H](O)[C@H](Cc2ccccc2)NC(=O)[C@@H](NC(=O)[C@@](C)(O)c2ccccc2)C(C)(C)C)cc1", "cells": "MT-4", "strain or isolate": "EHO", "result": "0.47 µM"}
{"structure": "O=c1[nH]c(=O)n([C@H]2C[C@H](F)[C@@H](CO)O2)cc1C(OCC(F)(F)F)OCC(F)(F)F", "cells": "CEM", "result": "35 µg/mL"}
{"structure": "COc1ccc(CN[C@@H](C(=O)N[C@H](C(=O)NCc2nc3ccccc3[nH]2)C(C)C)[C@H](O)[C@H](Cc2ccccc2)NC(=O)[C@@H](NC(=O)[C@@](C)(O)c2ccccc2)C(C)(C)C)cc1", "cells": "MT-4", "strain or isolate": "EHO", "result": "0.47 µM"}
{"structure": "COc1ccc(CN[C@@H](C(=O)N[C@H](C(=O)NCc2nc3ccccc3[nH]2)C(C)C)[C@H](O)[C@H](Cc2ccccc2)NC(=O)[C@@H](NC(=O)CCc2ccc(O)cc2)C(C)(C)C)cc1", "cells": "MT-4", "strain or isolate": "ROD", "result": "0.7 µM"}
{"structure": "O=c1[nH]c(=O)n([C@H]2CC(F)(F)[C@@H](CO)O2)cc1COCC(F)(F)F", "cells": "CEM", "result": "≥100 µg/mL"}
{"structure": "COc1ccc(CN[C@@H](C(=O)N[C@H](C(=O)NCc2nc3ccccc3[nH]2)C(C)C)[C@H](O)[C@H](Cc2ccccc2)NC(=O)[C@@H](NC(=O)OCc2ccccc2)C(C)(C)C)cc1", "cells": "MT-4", "strain or isolate": "ROD", "result": "0.755 µM"}
{"structure": "CC(C)(C)C(=O)c1sc(C(=O)NCc2ccccc2)c(O)c1O", "cells": "PBMC", "strain or isolate": "D194", "result": "0.7 µM"}

The first 2 rows once more:

structure,cells,strain or isolate,result
COC(=O)[C@H](C)NP(=O)(OC[C@H]1C/C1=C/n1cnc2c(N)nc(N)nc21)Oc1ccccc1,MT-2,ROD,0.38 µM
COc1ccc2c(c1)N(C(=O)OC(C)C)[C@@H](CSC)C(=S)N2,PBL,ROD,>10 µM